Drawing on publication PMC10109501, “Cryo-EM structures and binding of mouse and human ACE2 to SARS-CoV-2 variants of concern indicate that mutations enabling immune escape could expand host range” (2023), this text covers fold stronger affinity compared to Beta for one substance.

Where “and” joins values, the source holds several entries; their conditions need not be identical. Identical values can stand only once.

The target of the assay is mouse ACE2-Fc (residues 19-615, mouse IgG2a Fc fusion) (mouse) (UniProt Q8R0I0). The assay can be described thus: BLI. On the technique in general: In BLI a coated tip is dipped into the sample, and binding shifts an interference pattern.

With Omicron Spike proteins, the fold stronger affinity compared to Beta was 14 fold and 20 fold.
